According to PMC2757719, “EBNA1-Mediated Recruitment of a Histone H2B Deubiquitylating Complex to the Epstein-Barr Virus Latent Origin of DNA Replication” (PLoS Pathogens, 2009):

Target: T1, EBNA1 truncation mutant […] (Epstein-Barr virus)
T1 construct: EBNA1 of Epstein-Barr virus, […], amplified from pc3oriPEBNA1; also called EBNA1_([…]); EBNA_([…]); source: E. coli BL21 pLysS (pET15b), purified (Ni-NTA Agarose)
Test: native gel or EMSA; EBNA1 fragment titrated, preincubated with 10 pmols USP7 or USP7-NTD 10 min at RT before 10 fmoles 32P-labelled DS site 1 DNA (or EBNA1-DNA preformed, then rising USP7, Figure 2C); 20 mM Tris pH 7.5, 200 mM NaCl, 1 µg salmon sperm DNA, 20 µl; 10% polyacrylamide gel; read-out: supershift of the EBNA1-DNA complex
Settings: both partners purified

B1: USP7-NTD (N-terminal TRAF domain of USP7, amino acids 56–205) (domain or fragment, human, UniProt Q93009 56-205, looked up)
chain: EEDMEDDTSWRSEATFQFTVERFSRLSESVLSPPCFVRNLPWKIMVMPRFYPDRPHQKSVGFFLQCNAESDSTSWSCHAQAVLKIINYRDDEKSFSRRISHLFFHKENDWGFSNFMAWSEVTDPEKGFIDDDKVTFEVFVQADAPHGVAW
notes: USP7 N-terminal TRAF domain, human, amino acids 56-205; also called USP-NTD; N-terminal domain of USP7
binding result: binds
